# Several values for one entry are separate records, joined by “and”; a condition that tells them apart may be missing. Equal values may be shown once.
# Test system: Lipase (glycerol ester hydrolase)
# Experiment: Lipase (glycerol ester hydrolase) assay, esterase resistance
# Type: biochemical, Staphylococcus aureus
# Details: for diameters (hydrolysis zone) / diameters squared: 500 ug/ml compound in agarose slide, 24 hours at 37° C.; for diameters (hydrolysis zone): 20 ul lipase 25 ug/ml per well, two lipase samples; for diameters squared: lipase 25 ug/ml
# Procedure: Protocol for Lipase (glycerol ester hydrolase) assay: • 1. Two separate samples of lipase at 25 ug/ml were prepared. • 2. Microscope slides were made up with 500 ug/ml of GML, SGML, or S2ML compounds. • These slides contained 0.85% agarose (Difco) heat solubilized into PBS (0.005 M NaPO4 pH 7.2; 0.15MNaC1). • 3. The mixtures contained the compounds above their solubility limits, so they were vortexed, and 4.5 ml of the cloudy mixtures was spread onto microscope slides. • 4. The slides remained at room temperature for 1 hour to allow the agarose to solidify. • 5. The, 4 mm wells were punched into the agarose, twice per slide. • 6. 20 ul of the Lipase was added to each well. • 7. The slides were incubated for 24 hours at 37° C. • 8. The diameter squared was determined for each. This allows determination of hydrolysis of compound. • GML: 15 mm; 15 mm diameters (diameters squared=225 mm) • SGML: 12 mm; 13 mm diameters (diameters squared=144 mm and 169 mm for an average of 156.5 mm) • S2GML: 0 mm; 0 mm diameters (diameters squared=0) • 10. Diameter squared is used to the determination would be a straight line with a standard curve. • Set GML at 100% • 11. SGML is 70% as much as GML • 12. S2GML is 0% of GML
SMILES,diameters (hydrolysis zone),diameters squared,"diameters squared, average (average of two lipase samples) [mm]"
"CCCCCCCCCCCC(=S)SCC(O)CO (centres unmarked) [Example S2GML, glycerol dithionomonolaureate]",0 mm,0 mm,
"CCCCCCCCCCCC(=S)OCC(O)CO (centres unmarked) [SGML, glycerol thionomonolaureate]",12 mm and 13 mm,144 mm and 169 mm,156.5
